Compound potency records, mixed from different reports. Data source: NIAID ChemDB in PubChem.

Shared fields: growth or infection tests; organism: HIV-1; method: MTT; endpoint: EC50

Lines come from different laboratories, so protocols vary. ECn: concentration that inhibits the pathogen or its effect by n%. Blank or dashed fields: not listed here.

smiles	changes	cells	strain or isolate	value
NCCNc1ccc2[nH]ccc2c1		MT-4	IIIB	>252 µM
Cc1cn([C@H]2C[C@H](N=[N+]=[N-])[C@@H](CO)O2)c(=O)[nH]c1=O		MT-4	IIIB	0.021 µM
c1cc2cc(NCCCNC3=NCCN3)ccc2[nH]1		MT-4	IIIB	52.82 µM
Nc1nc(N)c2ncn([C@H]3CC[C@](OCP(=O)(O)O)(C(F)(F)F)C3)c2n1		PBMC	LAI	39.2 µM
COc1cc(C(c2ccc(O)c(OC)c2)C(C(=O)O)C(CO)CO)ccc1O		C8166	IIIB	3.47 µg/mL
C#Cc1ccc(Nc2nccc(Oc3c(C)cc(-c4cn(Cc5ccccc5)nn4)cc3C)n2)cc1		MT-4	RES056	>8.55 µM
Cc1ccc(-c2c(C)c(-c3ccc(C)c(C)c3)c3c(c2C(OC(C)(C)C)C(=O)O)CCC(=O)N3C)cc1C		MT-4	IIIB	0.01 µM
C#Cc1ccc(Nc2nccc(Oc3c(C)cc(-c4cn(Cc5ccccc5[N+](=O)[O-])nn4)cc3C)n2)cc1	E138K	MT-4	IIIB	0.5 µM
C1CNCCNCCCNCCNC1.O=S(=O)([O-])[O-].[O]=[V+2]		MT-4	IIIB	>340 µM
NC(N)=NCCNc1ccc2[nH]ccc2c1.O=S(O)O		MT-4	IIIB	>77.68 µM
COc1ccc(CCN=C2C=C(Cc3ccc4ccccc4c3)NS(=O)(=O)N2)cc1		MT-4	IIIB	>159 µM
NCCCCNc1ccc2[nH]ccc2c1		MT-4	IIIB	>19.23 µM
Cc1cc(C#N)cc(C)c1Oc1nc(Nc2ccc(C#N)cc2)ncc1SCC(=O)N1CCSCC1	F227L V106A	MT-4		1.09 µM
N#Cc1ccc(Nc2nccc(C(O)c3cccc4ccccc34)n2)cc1		MT-4	IIIB	0.071 µM
Cc1ccc(NC(=O)CSc2nncnc2-c2ccccc2Cl)c([N+](=O)[O-])c1		MT-4	IIIB	0.048 µM
CC(C)(C)C(=O)SCCOP(=O)(COCCn1cnc2c(N)ncnc21)OCCSC(=O)C(C)(C)C		MT-4	IIIB	0.81 µM
C#Cc1ccc(Nc2nccc(Oc3c(C)cc(-c4cn(-c5ccc(C(=O)O)cc5)nn4)cc3C)n2)cc1		MT-4	RES056	3.27 µM
CC(=O)N[C@H](C(=O)N[C@@H](Cc1ccccc1)C[C@H](O)[C@H](Cc1ccccc1)NC(=O)[C@@H]1CN(c2ccc(F)c(F)c2)C(=O)O1)C(C)C		MT-4		0.36 µM
Cc1cn([C@H]2C[C@H](N=[N+]=[N-])[C@@H](CO)O2)c(=O)[nH]c1=O		MT-4		0.005 µg/mL
O=C(CSc1nncnc1-c1ccccc1Cl)Nc1ccccc1[N+](=O)[O-]		MT-4	IIIB	0.023 µM
CC(C)(C)NC(=O)[C@@H]1C[C@@H]2CCCC[C@@H]2CN1C[C@@H](O)[C@H](Cc1ccccc1)NC(=O)[C@H](CC(N)=O)NC(=O)c1ccc2ccccc2n1		MT-4		0.01 µM
CN(C)c1ccc(NC2=NS(=O)(=O)NC(Cc3ccccc3)=C2)cc1		MT-4	IIIB	>256 µM
O=C(CSc1nncnc1-c1ccccc1Cl)Nc1ccccc1Br		MT-4	RES056	>55 µM
N#Cc1ccc(Nc2nccc(C(O)c3ccc4ccccc4c3)n2)cc1	K103N/Y181C	MT-4		>35.5 µM
CC(C)Nc1cccnc1N1CCN(C(=O)c2cc3cc(NS(C)(=O)=O)ccc3[nH]2)CC1		MT-4	IIIB	0.14 µM
Cc1cnc(Nc2ccc(C#N)cc2)nc1C(O)c1ccc2ccccc2c1		MT-4	IIIB	0.6 µM
COc1ccc(S(=O)(=O)N(CC(C)C)C[C@@H](O)[C@H](Cc2cccc(-c3cccc(OC)c3)c2)NC(=O)O[C@H]2CCOC2)cc1		MT-2	LAI	0.381 µM
c1cc(CN2CCCNCCNCCCNCC2)ccc1CN1CCCNCCNCCCNCC1		MT-4	NL4-3	0.032 µM
Cc1ccc(NC(=O)CSc2nncnc2-c2ccccc2Cl)c(Br)c1		MT-4	IIIB	0.178 µM
Nc1nc2c(ncn2[C@@H]2OC[C@H](CCP(=O)(O)O)[C@H]2F)c(=O)[nH]1		MT-4	IIIB	47.1 µM
Nc1ccn([C@H]2CC[C@@H](CO)O2)c(=O)n1		MT-4	IIIB	1 µM
COc1cc(NC2=NS(=O)(=O)NC(Cc3ccccc3)=C2)cc(OC)c1OC		MT-4	IIIB	>310 µM
C#Cc1ccc(Nc2nccc(Oc3c(C)cc(-c4cn(-c5ccc(C(=O)OC)cc5)nn4)cc3C)n2)cc1	Y181C	MT-4	IIIB	0.34 µM
CC(C)Nc1cccnc1N1CCN(C(=O)c2cc3cc(NS(C)(=O)=O)ccc3[nH]2)CC1		MT-4	RES056	>36 µM
Cc1ccc(NC2=NS(=O)(=O)NC(Cc3ccccc3)=C2)cc1Cl		MT-4	IIIB	>175 µM
COc1cc2c(c(OC)c1OC)-c1c(cc(OC(C)=O)c(OC)c1OC)C[C@H](C)[C@H](C)[C@H]2OC		C8166		1.82 µg/mL

2 of the rows above, restated:

{"smiles": "O=C(CSc1nncnc1-c1ccccc1Cl)Nc1ccccc1Br", "cells": "MT-4", "strain or isolate": "RES056", "value": ">55 µM"}
{"smiles": "COc1ccc(S(=O)(=O)N(CC(C)C)C[C@@H](O)[C@H](Cc2cccc(-c3cccc(OC)c3)c2)NC(=O)O[C@H]2CCOC2)cc1", "cells": "MT-2", "strain or isolate": "LAI", "value": "0.381 µM"}